Results of unrelated studies side by side (data: NIAID ChemDB).

All rows: whole-cell or culture tests; organism: Hepatitis C virus; endpoint: EC50

Neighbouring rows are from separate reports.

compound | strain | method | setting | value
CCOc1nc(NCc2ccc(F)c(F)c2)nc2ccc(-c3ccc(F)cc3)nc12 |  | replicon |  | <0.1 µM
CC1(C)CC(=O)C2=C(C1)Nc1c(O)cccc1N(C(=O)NCC(=O)NCCCO)C2c1ccc(OCc2ccccc2)cc1Cl | 1b | luciferase / reporter gene / replicon |  | >32 µM
O=C(Nc1cccc(-c2cc(-c3c(F)cccc3Cl)no2)c1)C(Cl)Cl |  | replicon |  | ≤10 µM
COC(=O)N[C@@H](C(=O)N[C@@H](C)c1ncc(-c2cnc(-c3ccc(-c4cnc([C@H]5CCCN5C(=O)[C@H](NC(=O)OC)c5ccccc5)[nH]4)cc3)cn2)[nH]1)c1ccccc1 | 1b |  |  | 0.00001–0.000999 µM
Cc1nc(C(=O)N2c3cccc(O)c3NC3=C(C(=O)CC(C)(C)C3)C2c2ccc(OCc3ccccc3)cc2F)c(-c2ccccc2)o1 | 1b | luciferase / reporter gene / replicon |  | 0.83 µM
CC1CCC(C(=O)N(c2cc(-c3ccc(NC(=O)c4cscn4)cc3)sc2C(=O)O)C(C)C)CC1 | 1b | replicon |  | <0.5 µM
COC(=O)N[C@@H](C(=O)N[C@@H](C)c1ncc(-c2ccc(-c3ncc(-c4cnc([C@H]5CCCN5C(=O)[C@@H](c5ccccc5)N5CCCCC5)[nH]4)cn3)cc2)[nH]1)c1ccccc1 | 1b |  |  | 0.00001–0.000999 µM
CC(=O)N1c2cccc(O)c2NC2=C(C(=O)CC(C)(C)C2)[C@H]1c1ccc(OCc2ccccc2)cc1Cl | 1b | luciferase / reporter gene / replicon |  | 1.25 µM
CC(C)c1cccc(Cl)c1-c1cc(-c2cccc(NC(=O)C(Cl)Cl)c2)on1 |  | replicon |  | ≤10 µM
COc1nc(N)nc2c1ncn2[C@@H]1O[C@H](COP(=O)(N[C@@H](C)C(=O)OC(C)C)Oc2ccccc2)[C@@H](O)[C@@]1(C)F | 2a | replicon | 132 d | 0.22 µM
O=C(Nc1cccc(-c2cc(-c3c(C4CCCC4)cccc3C(F)(F)F)no2)c1)C(Cl)Cl |  | replicon |  | ≤10 µM
CC1(C)CC(=O)C2=C(C1)Nc1c(O)cccc1N(C(=O)CC(N)=O)C2c1ccc(Cl)cc1Cl | 1b | luciferase / reporter gene / replicon |  | 9.65 µM
COC(=O)N[C@@H](C(=O)N1CCC[C@H]1c1ncc(-c2ccc(-c3ccc(-c4cnc([C@@H]5CCCN5C(=O)Cc5cccnc5)[nH]4)cc3C)cc2)[nH]1)c1ccccc1 | 1b |  |  | 0.00001–0.000999 µM
CC1(C)CC(=O)C2=C(C1)Nc1c(O)cccc1NC2c1c(OC(F)F)ccc2ccccc12 | 1b | luciferase / reporter gene / replicon |  | >32 µM
C[C@H](NC(=O)[C@H](c1ccccc1)N(C)C)c1ncc(-c2ccc(-c3ccc(-c4cnc([C@@H](C)NC(=O)[C@@H](c5ccccc5)N(C)C)[nH]4)cc3)nc2)[nH]1 | 1b |  |  | 0.00001–0.000999 µM
CN(C)CCNC(=O)CCC(=O)N1c2cccc(O)c2NC2=C(C(=O)CC(C)(C)C2)C1c1ccc(OCc2ccccc2)cc1Cl | 1b | luciferase / reporter gene / replicon |  | 46.82 µM
COc1nc(NCc2ccc(F)cc2)nc2ccc(-c3ccc(F)cc3)nc12 |  | replicon |  | <0.1 µM
COC(=O)N[C@@H](C(=O)N(C)[C@@H](C)c1ncc(-c2ccc(-c3ncc(-c4cnc([C@H]5CCCN5C(=O)[C@@H](c5ccccc5)N5CCCCC5)[nH]4)cn3)cc2)[nH]1)c1ccccc1 | 1b |  |  | 0.00001–0.000999 µM
O=C(Nc1cccc(-c2cc(-c3c(Cl)cccc3N3CCOCC3)no2)c1)C(Cl)Cl |  | replicon |  | ≤10 µM
CC1CCC(C(=O)N(CC2CC2)c2cc(-c3ccc(NC(=O)c4ccccn4)cc3)sc2C(=O)O)CC1 | 1b | replicon |  | <0.5 µM
CN(C)CCCN(C)C(=O)CCC(=O)N1c2cccc(O)c2NC2=C(C(=O)CC(C)(C)C2)C1c1ccc(OCc2ccccc2)cc1Cl | 1b | luciferase / reporter gene / replicon |  | 67.1 µM
COC(=O)N[C@@H](C(=O)N1CCC[C@H]1c1ncc(-c2ccc(-c3ccc(-c4cnc([C@@H]5CCCN5C(=O)[C@H](c5ccccc5)N(C)C)[nH]4)cc3C)cc2)[nH]1)c1ccccc1 | 1b |  |  | 0.00001–0.000999 µM
CCn1ccc(C(=O)Nc2ccc(-c3cc(N(C(=O)C4CCC(C)CC4)C(C)C)c(C(=O)O)s3)cc2)n1 | 1a | replicon |  | <0.5 µM
C[C@H](NC(=O)[C@@H](c1ccccc1)N(C)C)c1ncc(-c2cnc(-c3ccc(-c4cnc([C@H]5CCCN5C(=O)[C@@H](c5ccccc5)N(C)C)[nH]4)cc3)nc2)[nH]1 | 1b |  |  | 0.00001–0.000999 µM
CC(C)C(=O)N1c2cccc(O)c2NC2=C(C(=O)CC(C)(C)C2)C1c1cccc2ccccc12 | 1b | luciferase / reporter gene / replicon |  | 0.25 µM
CCN(CC)[C@@H](C(=O)N1CCC[C@@H]1c1ncc(-c2cnc(-c3ccc(-c4nc([C@H]5CCCN5C(=O)[C@@H](c5ccccc5)N(C)C)[nH]c4C(F)(F)F)cc3)nc2)[nH]1)c1ccccc1 | 1b |  |  | 0.00001–0.000999 µM
Cc1cnc(C(=O)Nc2ccc(-c3cc(N(C(=O)C4CCC(C)CC4)C(C)C)c(C(=O)O)s3)cc2)cn1 | 1b | replicon |  | <0.5 µM
Cc1ccc(F)c(-c2cc(-c3cccc(NC(=O)C(Cl)Cl)c3)on2)c1F |  | replicon |  | >10 µM
CCOc1nc(NCCOC)nc2ccc(-c3ccc(F)cc3)nc12 |  | replicon |  | <0.1 µM
CN(C)CCN(C)c1cccc(Cl)c1-c1cc(-c2cccc(NC(=O)C(Cl)Cl)c2)on1 |  | replicon |  | ≤10 µM
COCCOc1nc(NCc2ccc(S(N)(=O)=O)cc2)nc2ccc(-c3ccc(F)cc3)nc12 |  | replicon |  | <0.1 µM
COc1ccc(NC(=O)C(Cl)Cl)cc1-c1cc(-c2c(Cl)cccc2Cl)no1 |  | replicon |  | ≤10 µM
CCOc1nc(NCc2ccc(S(N)(=O)=O)cc2)nc2ccc(-c3ccc(NC(=O)C4CCNC4)c(F)c3)nc12 |  | replicon |  | <0.1 µM
CC1CCC(C(=O)N(c2cc(-c3ccc(NC(=O)c4ccc(F)cc4)c(Cl)c3)sc2C(=O)O)C(C)C)CC1 | 1a | replicon |  | <0.5 µM

Repeating the first 3 entries:

compound,strain,method,setting,value
CCOc1nc(NCc2ccc(F)c(F)c2)nc2ccc(-c3ccc(F)cc3)nc12,,replicon,,<0.1 µM
CC1(C)CC(=O)C2=C(C1)Nc1c(O)cccc1N(C(=O)NCC(=O)NCCCO)C2c1ccc(OCc2ccccc2)cc1Cl,1b,luciferase / reporter gene / replicon,,>32 µM
O=C(Nc1cccc(-c2cc(-c3c(F)cccc3Cl)no2)c1)C(Cl)Cl,,replicon,,≤10 µM

Two numbers with a dash give a range or band. ECn: concentration that inhibits the pathogen or its effect by n%. Blank or dashed fields: not listed here.